Common to all, as to experiment: SPR; CA hexamer amine-coupled to a ProteOn GLH chip, peptide injected as analyte; 25 °C; 1x PBS pH 7.4, 3% DMSO, 0.005% polysorbate 20; reference surface IgG b12; 1:1 binding model; KD from a Langmuir isotherm equilibrium fit and from a global kinetic fit; triplicate
Experiment [1] has as its target HIV-1 CA hexamer from clade D (isolate 94UG114.1) (HIV-1 isolate 94UG114.1 (clade D)).
Experiment [2] deals with HIV-1 CA hexamer from clade A1 (isolate 92UG037.1) (HIV-1 isolate 92UG037.1 (clade A1)).
For experiment [3], the target named is HIV-1 CA hexamer from clade B (isolate NL4-3) (HIV-1 isolate NL4-3 (clade B)).
The target in experiment [4] is HIV-1 CA hexamer from clade A2 (isolate CDKTB48) (HIV-1 isolate CDKTB48 (clade A2)).

The values that follow come from PMC9138599, “Clade-Specific Alterations within the HIV-1 Capsid Protein with Implications for Nuclear Translocation” (Biomolecules, 2022).

“And” between values parts separate entries of the source, which are not always exact repeats. Equal values may be shown once.

Turning to CPSF-6 peptide (313-…-327), the Kd is 70 µM and 72.8 µM in experiment [1]; 181 µM and 257 µM in experiment [2]; 98.6 µM and 93.8 µM in experiment [3]; 197 µM and 210 µM in experiment [4].
